For one substance, K0.5 and Vmax results are on record in publication PMC7494861, “Characterization of the nucleotide-binding domain NsrF from the BceAB-type ABC-transporter NsrFP from the human pathogen Streptococcus agalactiae” (Scientific Reports, 2020).

The subject of the series is Nc1ncnc2c1ncn2[C@@H]1O[C@H](COP(=O)(O)OP(=O)(O)OP(=O)(O)O)[C@@H](O)[C@H]1O. The series can be described thus: purified protein. Particulars: 100 mM HEPES pH 7, 10 mM Mg2+, 0 mM NaCl, 30 °C, cooperative.

One may read the Vmax as the rate approached at saturating substrate. For “SaNsrF (SaNsrFWT) (Streptococcus agalactiae 2603V/R)”, the K0.5 came out at 0.41 ± 0.05 mM and the Vmax was found to be 190.9 ± 10.0 nmol/min/mg.
